Percent effect of library compounds

The values are deposited in ChEMBL (CHEMBL3988442, “University of Dundee, Small-Polar-MMV Screening Library” (2021)).

Mtb glucose medium: 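Growth of Mycobacterium tuberculosis over 3 days (7H9 medium with glucose and tyloxapol); the read-out is not stated. Concentration: 500 µM. Direction is inferred from retests: higher values go with more growth inhibition. Of about 18,000 compounds tested this way, about 1,400 (7.9%) reached 50% or more in at least one test.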
Mtb cholesterol medium: 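Whole-cell growth test on Mycobacterium tuberculosis, read after 4 days in a medium based on cholesterol and the lipid DPPC; the read-out is not stated. Tested at 500 µM. The record gives no direction; compounds that gave an IC50 in retests scored well above the rest, so higher reads as more growth inhibition. About 18,000 compounds were tested under these conditions; 5% (about 900) showed 50% or more at least once.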

Results are given as percent effect.
The record does not define 0% and 100%; most values in the screen are far below 50% and negative numbers occur (in some assays of this library far below -100).
The entries come from a sample that favours strong results.

SMILES: CC(=O)Nc1ccc(N2CCCCC2)nc1
Mtb glucose medium: 51.17%

SMILES: Cc1ccn(-c2ccccc2NC(=O)CN(C)C)n1
Mtb glucose medium: 17.99%

SMILES: Cc1cc(C(=O)NCCOc2ncccc2Cl)[nH]n1
Mtb glucose medium: 41.31%
Mtb cholesterol medium: 25.67%

SMILES: NS(=O)(=O)c1ccc(OCC2CCNC2)cc1 (configuration not stated)
Mtb glucose medium: -0.4765%

SMILES: CCNc1ncc(C(=O)N2CCCO2)s1
Mtb glucose medium: -1.812%
Mtb cholesterol medium: 2.53%

SMILES: NCC1CN(Cc2ccccc2)CCO1 (configuration not stated)
Mtb glucose medium: 19.98%
Mtb cholesterol medium: 11.02%

SMILES: COC(=O)C1CC(c2ccccc2)=NO1 (configuration not stated)
Mtb cholesterol medium: 84.89%

SMILES: O=C(Nc1nccs1)N1CCC2(CC1)OCCO2
Mtb cholesterol medium: 10.57%

SMILES: CN(C)CCNC(N)=O
Mtb cholesterol medium: -2.058%

SMILES: CC(=O)N1CCN(Cc2ccc(Br)o2)CC1
Mtb glucose medium: 15.15%

SMILES: CC(C)CCNC(=O)Nc1ccc(S(C)(=O)=O)cc1
Mtb glucose medium: 65.79%
Mtb cholesterol medium: 73.24%

SMILES: NS(=O)(=O)CC1CCN(C(=O)c2ccco2)C1 (configuration not stated)
Mtb cholesterol medium: -12.91%

SMILES: C[C@@H]1CN(C(=O)CN2CCCC2)CC[C@@]1(O)C1CC1
Mtb cholesterol medium: 8.458%

SMILES: NCC(O)c1ccc(F)cc1F (configuration not stated)
Mtb glucose medium: 41.17%

SMILES: Cn1nnnc1SCCNC(=O)c1cc(Cl)ccc1F
Mtb cholesterol medium: 5.087%

SMILES: CCCN1CCN(C(=O)Nc2ccc(OC)cc2)CC1
Mtb cholesterol medium: 24.99%

SMILES: NC(=O)C1(N)CCOCC1
Mtb glucose medium: -3.953%

SMILES: CC(CC(N)=O)C(=O)NCCCc1ccc(Br)cc1F (configuration not stated)
Mtb glucose medium: 0.4974%
Mtb cholesterol medium: -8.962%

SMILES: CCc1ccc(CN(CC)[C@H]2COC[C@@H]2O)nc1
Mtb glucose medium: 35.36%

SMILES: CN(C)S(=O)(=O)c1cc2c(cc1Cl)OCCO2
Mtb glucose medium: 58.97%
Mtb cholesterol medium: 42.1%

SMILES: CN1CCN(c2ccccc2NC(=O)C2CC2)CC1
Mtb glucose medium: 16.53%

SMILES: NCc1cccc(S(=O)(=O)NCc2cccc(F)c2)c1
Mtb glucose medium: 55.11%
Mtb cholesterol medium: 39.16%

SMILES: CC(C)c1ccnc(N2CCOC(CCN)C2)n1 (configuration not stated)
Mtb glucose medium: 34.36%

SMILES: Cn1cc(CN(CCC#N)CCN2CCOCC2)cn1
Mtb cholesterol medium: 6.829%

SMILES: CNC(=O)c1ccc(C)c(NC(=O)C2=CSCCO2)c1
Mtb glucose medium: 5.955%

SMILES: COC(=O)NCCC(=O)N(C)C(C)CC(C)C (configuration not stated)
Mtb glucose medium: 44.61%

SMILES: N#Cc1c(F)cccc1NCCSCCCO
Mtb glucose medium: 69.32%
Mtb cholesterol medium: 69.41%

SMILES: Cc1nnc(CNC(=O)COc2ccc(F)cc2F)o1
Mtb glucose medium: 0.1211%

SMILES: CSC(C)CNC(=O)[C@@H]1CCCN1 (some centres not stated)
Mtb glucose medium: -0.4947%

SMILES: CNCC(=O)NC(Cc1cccc(OC)c1)C1CC1 (configuration not stated)
Mtb glucose medium: 32.82%

SMILES: CCN(CC)C(=O)CN1CCCC(C)C1 (configuration not stated)
Mtb glucose medium: 1.386%

SMILES: COCCN1CCN(CC(=O)NCC(F)(F)F)CC1C (configuration not stated)
Mtb glucose medium: -27.66%

SMILES: CC(=O)Nc1nc(C(=O)Nc2nccs2)cs1
Mtb glucose medium: 11.66%
Mtb cholesterol medium: -2.485%

SMILES: Cc1ncccc1CNc1c(C)c(C)nn1CCO
Mtb glucose medium: 5.678%

SMILES: NCC1CCCN(Cc2ccccc2)C1 (configuration not stated)
Mtb glucose medium: 15.07%
Mtb cholesterol medium: 3.822%

SMILES: CC(C)C(=O)Nc1ccccc1CN(C)C
Mtb cholesterol medium: -4.882%

SMILES: CC(C#N)N1CCC(C(=O)NCc2cccs2)CC1 (configuration not stated)
Mtb cholesterol medium: 11.49%

For reference, 3 entries once more:

For CSC(C)CNC(=O)[C@@H]1CCCN1 (some centres not stated) the result was Mtb glucose medium: -0.4947%.
For NCC1CN(Cc2ccccc2)CCO1 (configuration not stated) the result was Mtb glucose medium: 19.98%; Mtb cholesterol medium: 11.02%.
For NS(=O)(=O)CC1CCN(C(=O)c2ccco2)C1 (configuration not stated) the result was Mtb cholesterol medium: -12.91%.